Compound potency records, mixed from different reports. Data source: NIAID ChemDB in PubChem.

All rows: growth or infection tests; agent: Mycobacterium tuberculosis

Rows are shuffled and stem from different studies.

structure,conditions,strain or isolate,method,tested at,cell line,measure,value
Cn1cc([N+](=O)[O-])cc1C(=O)Nc1ccccc1,-,H37Rv,-,-,-,MIC90,>200 µg/mL
O=C(O)c1nc(N=Nc2ccc(S(=O)(=O)O)cc2)[nH]c1C(=O)O,-,H37Rv,resazurin,6.25 µg/mL,-,inhibition,-34%
Cc1[nH]n(CCO)c(=O)c1N=Nc1ccc(-c2n[nH]c(=S)n2-c2ccccc2)cc1,-,H37Rv,-,-,-,MIC,>12.5 µg/mL
COC1OCC(OS(=O)(=O)c2ccc(C)cc2)C2OC(C)(C)OC12,-,H37Rv,BACTEC,-,-,MIC bound,>12.5 µg/mL
N#C/C(=C/c1ccc2ccccc2c1)n1nnc2ccccc21,-,H37Rv,-,-,-,EC50,>12.5 µg/mL
O=c1[nH]c2ccc(C(F)(F)F)cc2nc1C(F)(F)F,-,-,-,12.5 µg/mL,-,inhibition,inactive
CC(C)CC(NC(=O)OC(C)(C)C)C(=O)NC(Cc1c[nH]c2ccccc12)C(=O)NN,-,H37Rv,BACTEC,-,-,MIC bound,>12.5 µg/mL
COc1cccc(CNC(=O)c2ccc([N+](=O)[O-])o2)c1OC,-,H37Rv,-,-,-,MIC90,0.8 µg/mL
Cc1ccc(NC(=O)CCl)cc1Cl,-,H37Rv,BACTEC,12.5 µg/mL,-,inhibition,97%
N#Cc1c(N)sc2sc(-c3ccc(Cl)cc3)cc12,-,H37Rv,-,-,-,MIC,43 µM
CC1=C(C(=O)Nc2ccccc2Cl)C(c2ccc(Cl)cc2)C(C(=O)Nc2ccccc2Cl)=C(C)N1,-,H37Rv,-,-,-,MIC,>12.5 µg/mL
CC1CCCCN1c1cncc(/C(N)=N/O)n1,-,Ethionamide-resistant,-,-,-,MIC,250 µg/mL
COc1cc2ccnc3c2c(c1OC(=O)c1ccccc1C)N(C)C=C3,-,H37Rv,-,-,-,MIC,>128 µg/mL
COC(=O)C1=C(C)N(c2ccc(Cl)cc2)C(C)=C(C(=O)OC)C1c1cccc([N+](=O)[O-])c1,-,H37Rv,-,-,-,MIC,>6.25 µg/mL
O=C1C(Cl)=C(Nc2ccccn2)C(=O)c2ccccc21,-,H37Rv,BACTEC,-,-,MIC,1.56 µg/mL
N#Cc1c(N)sc2sc(-c3ccc(Cl)cc3Cl)cc12,-,H37Rv,-,-,-,MIC,30.4 µM
FC(F)(F)c1[nH]nc(-c2cc3ccccc3o2)c1N=NN1CCOCC1,-,H37Rv,BACTEC,-,-,MIC bound,≤12.5 µg/mL
CC(C)=CCC/C(C)=C/CO,-,H37Rv,-,-,-,MIC,64 µg/mL
NNC(=O)c1ccncc1,-,Strain 40,-,-,-,MIC,8 µg/mL
CC1=C(C(=O)Nc2ccccc2Cl)C(c2ccc(N(C)C)cc2)C(C(=O)Nc2ccccc2Cl)=C(C)N1,-,H37Rv,-,-,-,MIC,>12.5 µg/mL
CCOC(=O)/C=C/c1ccc(OC)cc1,-,BTB09-002,resazurin,-,-,MIC,242 µM
O=C1NC(=NCc2ccccc2)N/C1=C\c1ccc(Cl)cc1Cl,-,H37Rv,-,12.5 µg/mL,-,inhibition,46%
N#Cc1c(N)[n+]([O-])c2cc(F)c(Cl)cc2[n+]1[O-],-,H37Rv,-,6.25 µg/mL,-,inhibition,99%
O=C(NC1C(=O)C(Cl)C1c1ccccc1)c1sc2ccc(Oc3ccccc3)cc2c1Cl,-,H37Rv,-,6.25 µg/mL,-,inhibition,4%
COC1(CO)C(=O)N(C)CC(=O)N1C,-,EMB-R,-,-,-,MIC,6.3 µg/mL
CCN(CC)CCNC(=O)Nc1c(C#N)[n+]([O-])c2ccccc2[n+]1[O-],-,H37Rv,-,-,-,MIC,>12.5 µg/mL
N#C/C(=C\c1ccc2c(c1)OCO2)n1nnc2ccccc21,-,H37Rv,-,-,-,EC50,>12.5 µg/mL
N#Cc1c(N)sc2sc(-c3cccc4ccccc34)cc12,multidrug-resistant,MDR-TB,-,-,-,MIC,5.1 µM
Cc1ccc(S(=O)(=O)c2ccc(Cl)cc2[N+](=O)[O-])c2c1CCCN2,-,H37Rv,resazurin,6.25 µg/mL,-,inhibition,51%
NC(=O)c1cncc(-n2cncn2)n1,-,Isoniazid-resistant,-,-,-,MIC,500 µg/mL
N#C/C(=C\c1ccco1)n1nnc2ccccc21,-,H37Rv,-,12.5 µg/mL,-,inhibition,33%
N/C(=N/N=C/c1ccc(Cl)cc1)c1ccccn1,-,1814 (THC-resistant),-,-,-,MIC,64 µg/mL
Cc1nn(C(=S)S)c(C)c1N=Nc1cccc(F)c1,-,H37Rv,BACTEC,128 µg/mL,-,inhibition,100%
COc1ccc(CCNC(=O)c2ccc([N+](=O)[O-])o2)cc1OC,-,H37Rv,-,-,-,MIC90,6.25 µg/mL
CCOC(=O)Nc1c(C#N)[n+]([O-])c2ccccc2[n+]1[O-],-,H37Rv,-,-,-,MIC,<12.5 µg/mL
O=C(Nc1ccncc1)c1ccc([N+](=O)[O-])o1,-,H37Rv,-,-,-,MIC90,6.25 µg/mL
N/C(=N/N=C/c1cccc(F)c1)c1ccccn1,-,1062 (THC-resistant),-,-,-,MIC,64 µg/mL
C/C(=C1/N=C(c2ccccc2)OC1=O)c1cccs1,-,H37Rv,BACTEC,-,-,MIC,6.25 µg/mL
COc1cc2ccnc3c2c(c1OC(=O)c1cc(F)ccc1F)N(C)C=C3,-,H37Rv,-,-,-,MIC,>128 µg/mL
C/C=C1\C(=O)O[C@]23C=C[C@@H]4C(C(=O)OC)=CO[C@H](O[C@@H]12)[C@@H]43,-,MDR3 clinical isolate,MTT,-,-,MIC,2 µg/mL
O=C1C[C@H](c2ccccc2)C2(C(=O)c3ccccc3C2=O)[C@@H](c2ccccc2)C1,-,H37Rv,BACTEC,-,-,MIC bound,>12.5 µg/mL
O=C(O)/C(=C\c1ccc(Cl)cc1)n1nnc2ccccc21,-,H37Rv,-,12.5 µg/mL,-,inhibition,0%
CO[C@H]1/C=C/O[C@@]2(C)Oc3c(C)c(O)c4c(O)c(c5c(c4c3C2=O)NC2(CCN(CC(C)C)CC2)N=5)=NC(=O)/C(C)=C\C=C\[C@H](C)[C@H](O)[C@@H](C)[C@@H](O)[C@@H](C)[C@H](OC(C)=O)[C@@H]1C,-,30 isolates,-,-,-,MIC50,0.063 µg/mL
COc1ccc(/C=C2\C(=O)N(C)C(=O)c3cc(OC)c(OC)cc32)cc1OC,-,H37Rv,resazurin,-,-,MIC bound,>6.25 µg/mL
O=c1[nH]c2cc(F)c(F)cc2nc1CBr,-,-,-,12.5 µg/mL,-,inhibition,inactive
O=C1NC(Nc2ccc(Cl)cc2)=N/C1=C\c1ccccc1Cl,-,H37Rv,-,12.5 µg/mL,-,inhibition,99%
COc1ccc(/C=N/NC(=O)c2sc3ccc(Oc4ccccc4)cc3c2Cl)cc1,-,H37Rv,-,6.25 µg/mL,-,inhibition,0%
O=[N+]([O-])c1ccc(N2CCOCC2)c2c1no[n+]2[O-],-,H37Rv,resazurin,-,-,MIC bound,<6.25 µg/mL
COc1ccccc1/C=N/N=C(/N)c1ccccn1,-,1454 (THC-resistant),-,-,-,MIC,64 µg/mL
Cc1[nH]nc(C(=O)N/N=C/c2ccccc2Cl)c1N=NN(C)C,-,H37Rv,BACTEC,-,VERO,MIC,6.25 µg/mL
CCOC(=O)c1c(N)sc2sc(-c3cccc4ccccc34)cc12,multidrug-resistant,MDR-TB,-,-,-,MIC,1.1 µM
COc1cccc(/C=C2/N=C(Cl)OC2=O)c1O,-,H37Rv,BACTEC,12.5 µg/mL,-,inhibition,2%
COc1cc2ccnc3c2c(c1OC(=O)c1cccc(C)c1)N(C)C=C3,-,H37Rv,-,-,-,MIC,>128 µg/mL
Cc1[nH]n(CCO)c(=O)c1N=Nc1ccc(C(=O)N/N=C/c2ccc(F)cc2)cc1,-,H37Rv,-,-,-,EC50,>12.5 µg/mL
COc1cc(C(=O)N/N=C/C(=O)O)cc(OC)c1OC,-,H37Rv,BACTEC,-,-,MIC bound,>12.5 µg/mL
NC(=O)/C(=C\c1ccccc1)n1nnc2ccccc21,-,H37Rv,-,12.5 µg/mL,-,inhibition,0%
COc1cc(CC(=O)N2COC(c3sc4ccc(Oc5ccccc5)cc4c3Cl)=N2)ccc1O,-,H37Rv,-,6.25 µg/mL,-,inhibition,6%
Cc1[nH]n(CCO)c(=O)c1N=Nc1ccc(-c2n[nH]c(=S)o2)cc1,-,H37Rv,-,12.5 µg/mL,-,inhibition,0%
CSc1ccc(C2C(Cl)C(=O)C2NC(=O)c2sc3ccc(Oc4ccccc4)cc3c2Cl)cc1,-,H37Rv,-,6.25 µg/mL,-,inhibition,12%
Cc1[nH]n(-c2ccccc2)c(=O)c1N=Nc1ccc(-c2n[nH]c(=S)o2)cc1,-,H37Rv,-,-,-,EC50,<12.5 µg/mL
Oc1cc(CCCc2ccccc2)ccc1Oc1ccc(Cl)cc1Cl,-,H37Rv,-,-,-,MIC,13 µM
C[C@H]1COc2c(N3CCN(C)CC3)c(F)cc3c(=O)c(C(=O)O)cn1c23,-,Strain 370,-,-,-,MIC,0.25 µg/mL
COc1ccc(-c2c3c([nH]c(=S)c2C#N)CCC3)cc1,-,H37Rv,BACTEC,-,-,MIC bound,>12.5 µg/mL
COc1ccc(CCNC(=O)c2ccc([N+](=O)[O-])o2)cc1,-,H37Rv,-,-,-,MIC90,0.4 µg/mL
O=C1NC(Nc2ccccc2)=N/C1=C\c1c(Cl)cccc1Cl,-,H37Rv,-,-,-,MIC,>6.25 µg/mL
COc1nc2ccc(Br)cc2cc1[C@@H](c1ccccc1)[C@@](O)(CCN(C)C)c1cccc2ccccc12,-,H37Rv,resazurin,-,-,fold resistance,8
NC(=O)c1cnccn1,-,M6669,-,-,-,MIC,60 µg/mL
N/C(=N\N=C\c1ccc(Cl)c([N+](=O)[O-])c1)c1ccccn1,-,H37Rv,-,-,-,MIC,500 µg/mL
COc1cc2ccnc3c2c(c1OC(=O)c1ccc(CCl)cc1)N(C)C=C3,-,H37Rv,-,-,-,MIC,>128 µg/mL
Cc1ccc(/C=N/N=C(/N)c2ccccn2)cc1,-,1454 (THC-resistant),-,-,-,MIC,64 µg/mL
CC(=O)OC/C=C(\C)CCC[C@H](C)CCC[C@H](C)CCCC(C)C,-,H37Rv,-,-,-,MIC,16 µg/mL
O=C1NC(Nc2ccc(Cl)cc2)=N/C1=C\c1ccc(Cl)cc1Cl,-,H37Rv,-,-,-,MIC,<12.5 µg/mL
CCCCCc1ccc(C(=O)Oc2c(OC)cc3ccnc4c3c2N(C)C=C4)cc1,-,H37Rv,-,-,-,MIC,>128 µg/mL
CO[C@H]1/C=C/O[C@@]2(C)Oc3c(C)c(O)c4c(O)c(c5c(c4c3C2=O)NC2(CCN(CC(C)C)CC2)N=5)=NC(=O)/C(C)=C\C=C\[C@H](C)[C@H](O)[C@@H](C)[C@@H](O)[C@@H](C)[C@H](OC(C)=O)[C@@H]1C,-,3181-4,-,-,-,MBC,0.125 µg/mL
O=c1[nH]c2cc(C(F)(F)F)ccc2nc1C(F)(F)F,-,-,-,-,-,EC50,>12.5 µg/mL
Nc1c(C(=O)Nc2ccc(S(N)(=O)=O)cc2)[n+]([O-])c2ccccc2[n+]1[O-],-,H37Rv,BACTEC,-,-,MIC,≥12.5 µg/mL
CC(C)c1ccc(-c2cc3c(C#N)c(N)sc3s2)cc1,multidrug-resistant,MDR-TB,-,-,-,MIC,20.9 µM
C/C(=C\CO)CCC[C@H](C)CCC[C@H](C)CCCC(C)C,-,H37Rv,-,-,-,EC50,<33 µg/mL
Cc1ccc2c(c1)[n+]([O-])c(C#N)c(NC(=O)OC(C)C)[n+]2[O-],-,H37Rv,-,-,-,MIC,<12.5 µg/mL
NCC(=O)N[C@H](CO)C(=O)O,-,H37Rv,BACTEC,-,-,MIC,≥12.8 µg/mL
N#C/C(=C/c1cccc2ccccc12)n1nnc2ccccc21,-,H37Rv,-,-,-,EC50,>12.5 µg/mL
CC1(C)Nc2cccc3c(N=Nc4ccc(N=Nc5ccccc5)c5ccccc45)ccc(c23)N1,-,ETA-R,-,-,-,MIC,2 µg/mL
Oc1cc(CC2CCCCC2)ccc1Oc1ccc(Cl)cc1Cl,-,Clinical isolate 5071,-,-,-,MIC,13 µM
C=CCn1c(-c2ccc(N=Nc3c(C)[nH]n(CCO)c3=O)cc2)n[nH]c1=S,-,H37Rv,-,-,-,MIC,>12.5 µg/mL
CC1CCCCN1c1cncc(C(=O)NN)n1,-,Capreomycin-resistant,-,-,-,MIC,125 µg/mL
COc1cc2ccnc3c2c(c1OC(=O)c1ccc(F)c(F)c1)N(C)C=C3,-,H37Rv,-,-,-,MIC,>128 µg/mL
N#C/C(=C/C1CCCCC1)n1nnc2ccccc21,-,H37Rv,-,-,-,EC50,>12.5 µg/mL
OCNC(=S)c1cncc(-n2ccnc2)n1,-,Isoniazid-resistant,-,-,-,MIC,250 µg/mL
O=C1NC(=NCc2ccc(F)cc2)N/C1=C\c1c(Cl)cccc1Cl,-,H37Rv,-,-,-,MIC,>12.5 µg/mL
COC(=O)C1=C(C)N(c2ccc(Cl)cc2)C(C)=C(C(=O)OC)C1c1ccc(Cl)cc1,-,H37Rv,-,-,-,MIC,>6.25 µg/mL
COc1cc(/C=N/N=C(\N)c2ccccn2)cc(OC)c1,-,H37Rv,-,-,-,MIC,250 µg/mL

7 of the rows above, restated:

structure,conditions,strain or isolate,method,tested at,cell line,measure,value
C[C@H]1COc2c(N3CCN(C)CC3)c(F)cc3c(=O)c(C(=O)O)cn1c23,-,Strain 370,-,-,-,MIC,0.25 µg/mL
CCOC(=O)c1c(N)sc2sc(-c3cccc4ccccc34)cc12,multidrug-resistant,MDR-TB,-,-,-,MIC,1.1 µM
NC(=O)c1cnccn1,-,M6669,-,-,-,MIC,60 µg/mL
COc1ccc(CCNC(=O)c2ccc([N+](=O)[O-])o2)cc1OC,-,H37Rv,-,-,-,MIC90,6.25 µg/mL
COc1cc(/C=N/N=C(\N)c2ccccn2)cc(OC)c1,-,H37Rv,-,-,-,MIC,250 µg/mL
Cn1cc([N+](=O)[O-])cc1C(=O)Nc1ccccc1,-,H37Rv,-,-,-,MIC90,>200 µg/mL
FC(F)(F)c1[nH]nc(-c2cc3ccccc3o2)c1N=NN1CCOCC1,-,H37Rv,BACTEC,-,-,MIC bound,≤12.5 µg/mL

MIC50, MIC90 and the like: level of inhibition, or share of isolates inhibited. Fold resistance has wild type as its base. For "inactive" no cut-off is given. ECn is the concentration giving n% inhibition of infection, replication or growth. Blank or dashed fields: not listed here. Percent inhibition refers to the dose given; in toxicity tests it is the harm to the cells. MIC bound comes from a single tested concentration.